Laboratory results reported in US11344554B2, “Animal and human anti-malarial agents” (Celgene Corporation, priority 2016, dated 2022).

The molecules below were run on Plasmodium falciparum (assay: Plasmodium falciparum in vitro [3H]-hypoxanthine parasite growth inhibition assay). Details: read-out: Act Class (IC50 activity level); P. falciparum asexual blood stage parasites in human erythrocytes, [3H]-hypoxanthine uptake.
Assay type: cell-based

First: CC(C)Nc1ncc2nc(Nc3cc(Cl)cc(C#N)c3)n(C3CCNC3)c2n1 (centres unmarked)
Second: FC(F)(F)c1cc(Cl)cc(Nc2nc3cnc(NC4CCC4)nc3n2[C@H]2CCNC2)c1
The IC50 of the first is higher: 200 to 500 nM for the first, 100 to 200 nM for the second.

Compared with `CC1(Nc2ncc3nc(Nc4cc(Cl)cc(C(F)(F)F)c4)n(C4CCNC4)c3n2)CC1` (centres unmarked), `CC(C)(N)Cn1c(Nc2cc(Cl)cc(C(F)(F)F)c2)nc2cnc(NC3CCCC3)nc21` is higher in IC50: 100 to 200 nM for the first, 200 to 500 nM for the second.

First: CNCCn1c(Nc2cc(Cl)cc(C(F)(F)F)c2)nc2cnc(NC3CCCC3)nc21
Second: NCCn1c(Nc2cc(Cl)cc(C(F)(F)F)c2)nc2cnc(NC3CCCC3)nc21
The IC50 of the first is lower: 200 to 500 nM for the first, 500 to 1200 nM for the second.

Compared with `CC1(Nc2ncc3nc(Nc4cc(Cl)cc(C(F)(F)F)c4)n(C4CCNC4)c3n2)CCCC1` (centres unmarked), `CC(C)Nc1ncc2nc(Nc3cc(F)cc(Cl)c3)n(C3CCNC3)c2n1` (centres unmarked) is higher in IC50: 100 to 200 nM for the first, 500 to 1200 nM for the second. The first is the more potent here.

First: CC(C)(C)Nc1ncc2nc(Nc3cc(Cl)cc(C(F)(F)F)c3)n(C3CCNC3)c2n1 (centres unmarked)
Second: N#Cc1cc(Cl)cc(Nc2nc3cnc(NC4CCCC4)nc3n2C2CCNC2)c1 (centres unmarked)
The IC50 of the first is lower: under 100 nM for the first, 500 to 1200 nM for the second. The first is the more potent here.

First: CC(C)(C)Nc1ncc2nc(Nc3cc(Cl)cc(C(F)(F)F)c3)n([C@H]3CCNC3)c2n1
Second: CC(N)Cn1c(Nc2cc(Cl)cc(C(F)(F)F)c2)nc2cnc(NC(C)(C)C)nc21 (centres unmarked)
The IC50 of the first is lower: 100 to 200 nM for the first, 500 to 1200 nM for the second. The first is the more potent here.

`CC(C)(C)Nc1ncc2nc(Nc3ccc(Cl)cc3)n(C3CCNC3)c2n1` (centres unmarked) and `CC(C)(C)Nc1ncc2nc(Nc3cccc(C(F)(F)F)c3)n(CCN3CCCC3)c2n1` fall in the same range of IC50: 500 to 1200 nM for the first, 500 to 1200 nM for the second.

First: 9-(2-amino-2-methylpropyl)-N2-tert-butyl-N8-(3-chloro-5-(trifluoromethyl)phenyl)-9H-purine-2,8-diamine
Second: CC(C)(C)Nc1ncc2nc(Nc3cc(Cl)cc(C(F)(F)F)c3)n(C3CNC3)c2n1
The IC50 of the first is higher: 500 to 1200 nM for the first, 200 to 500 nM for the second.

First: FC(F)(F)c1cc(Cl)cc(Nc2nc3cnc(NC4CCC4)nc3n2C2CCNC2)c1 (centres unmarked)
Second: CC(C)(C)Nc1ncc2nc(Nc3cccc(C(F)(F)F)c3)n(C3CCNC3)c2n1 (centres unmarked)
The IC50 of the first is higher: 200 to 500 nM for the first, 100 to 200 nM for the second. The second is the more potent here.

First: CC(C)(C)Nc1ncc2nc(Nc3ccc(C(F)(F)F)cc3)n(C3CCNC3)c2n1 (centres unmarked)
Second: CNCCn1c(Nc2cc(Cl)cc(C(F)(F)F)c2)nc2cnc(NC(C)(C)C)nc21
The IC50 of the first is lower: 200 to 500 nM for the first, 500 to 1200 nM for the second. The first is the more potent here.

First: CC(C)(C)Nc1ncc2nc(Nc3cc(Cl)cc(C(F)(F)F)c3)n(CCN)c2n1
Second: CC(C)(C)Nc1ncc2nc(Nc3cc(Cl)cc(Cl)c3)n(C3CCNC3)c2n1 (centres unmarked)
The IC50 of the first is higher: 500 to 1200 nM for the first, 100 to 200 nM for the second.

Compared with `CC(C)(C)Nc1ncc2nc(Nc3ccc(Cl)c(Cl)c3)n(C3CCNC3)c2n1` (centres unmarked), `CC(C)Nc1ncc2nc(Nc3cc(Cl)cc(C(F)(F)F)c3)n(C3CCNC3)c2n1` (centres unmarked) is higher in IC50: 100 to 200 nM for the first, 200 to 500 nM for the second. The first is the more potent here.

`CC(N)Cn1c(Nc2cc(Cl)cc(C(F)(F)F)c2)nc2cnc(NC3CCCC3)nc21` (centres unmarked) and `FC(F)(F)c1cc(Cl)cc(Nc2nc3cnc(NC4CCC4)nc3n2[C@@H]2CCNC2)c1` fall in the same range of IC50: 200 to 500 nM for the first, 200 to 500 nM for the second.
